Data published in ChEMBL document CHEMBL3044862, “Quantitative Structure-Activity Relationships of Fluazinam and Related Fungicidal N-Phenylpyridinamines” (1995).

Test system: Botrytis cinerea
Test: Fungicidal activity against Botryotinia fuckeliana inoculated on compound pre-treated one-leaf stage cucumber seedlings assessed as prevention of leaf lesions measured 3 days after inoculation

[N-]=[N+]=Nc1c(C(F)(F)F)cc([N+](=O)[O-])c(Nc2ncc(C(F)(F)F)cc2Cl)c1[N+](=O)[O-]
MIC: > 500 µg/mL
